A mixed list of measured activities; the numbers were collected in NIAID ChemDB.

All rows: cytotoxicity tests; cell line: MT-4; read-out: CC50

CCn is the concentration with n% toxicity to the cells. Conditions beyond the fields shown may differ between rows. Two numbers with a dash give a range or band. An empty or dashed field is not shown.

compound	read by	result
C=CCN1C(=O)N(Cc2ccccc2)S(=O)(=O)c2cscc21	-	303.8 µM
CC(C)Nc1cccnc1N1CCN(C(=O)c2cc3cc(NS(C)(=O)=O)ccc3[nH]2)CC1	MTT	>43.81 µM
Nc1ccn(C[C@H]2C[C@@]2(CO)c2ccccc2)c(=O)n1	-	<3.12 µg/mL
O=C1C(=O)N(CCOCCN2C(=O)C(=O)c3cc(F)ccc32)c2ccc(F)cc21	MTT	132.5 µM
Cc1cn([C@@H]2C=CC3(CO)C[C@@H]23)c(=O)[nH]c1=O	-	100 µg/mL
CN1C(=O)N(c2cccc(Cl)c2)S(=O)(=O)c2cscc21	-	484.5 µM
O=C(OC[C@H]1O[C@@H](Oc2ccc(O)c3cccc(O)c23)[C@H](O)[C@@H](O)[C@@H]1O)c1cc(O)c(O)c(O)c1	-	25 µg/mL
[N-]=[N+]=N[C@H]1C[C@H](n2cnc3c(Oc4ccccc4)nc(N)nc32)O[C@@H]1CO	-	~200 µM
CC(C)(C)NC(=O)[C@@H]1CCCN1C(=O)[C@@H](O)[C@H](Cc1ccccc1)NC(=O)[C@H](CC(N)=O)NC(=O)COc1cccc2ccccc12	MTT	31 µg/mL
COc1ccc(Sc2nc(N)nc3c2ncn3CCOCP(=O)(OCC(F)(F)F)OCC(F)(F)F)cc1	-	>34 µM
CCOCn1c(Cc2cc(C)cc(C)c2)c(CC)c(=O)[nH]c1=O	-	249 µM
CCc1nc2sccn2c1C(=O)c1ccccc1	MTT	223 µM
Cc1c(Cc2c(F)cccc2F)nc(NC2CCCCC2)[nH]c1=O	MTT	30 µM
COc1ccc(C2CC(=O)c3c(O)cc(O)cc3O2)c(CC=C(C)C)c1OC	-	>100 µg/mL
COc1ccc(CSc2nc(Cc3ccc(C#N)cc3)c(C)c(=O)[nH]2)cc1	-	>66.31 µM
Nc1ccn([C@]2(c3ccccc3)C[C@@H]2CO)c(=O)n1	-	>100 µM
Nc1ccn([C@H]2CC[C@@H](CO)O2)c(=O)n1	MTT	>20 µg/mL
c1cc(CCNCCN2CCCCC2)ccc1CCNCCN1CCCCC1	-	50 µg/mL
O=c1[nH]cnc2c1ncn2[C@H]1CC[C@@H](CO)O1	MTT	>100 µg/mL
c1cc(CCNCCCN2CCCC2)ccc1CCNCCCN1CCCC1	-	37 µg/mL
CCc1c(Sc2cc(C)cc(C)c2)n(COCCO)c(=O)[nH]c1=O	-	155 µM
Cc1cc(C)c(Nc2nc(NC3CCN(Cc4ccccc4)CC3)nc3nc[nH]c23)c(C)c1	MTT	25.95 µM
Nc1nc2c(ncn2CC(CF)OCP(=O)(O)O)c(=O)[nH]1	-	316 µM
CCc1nc2ccccn2c1C(=O)c1cccs1	MTT	240 µM
O=[N+]([O-])c1ccc(-c2nnc(-c3cccnc3)o2)cc1	MTT	73.5 µg/mL
Cc1cn([C@H]2C[C@H](N=[N+]=[N-])[C@@H](CO)O2)c(=O)[nH]c1=O	-	1.02 µg/mL
C=CC(C)(C)c1cc2c(cc1O)O[C@H](c1cc(O)c(O)c(CC=C(C)C)c1CC=C(C)C)CC2	-	9 µg/mL
CCCCNc1nc(N)nc2c1ncn2[C@H]1C[C@H](N=[N+]=[N-])[C@@H](CO)O1	-	<200 µM
COC(=O)C1C(=O)N(O)C(=O)c2ccccc21	MTT	60.85 µM
Cc1cn(C[C@@H]2C[C@@]2(CO)c2ccccc2)c(=O)[nH]c1=O	-	>100 µg/mL
O=c1[nH]cnc2c1ncn2[C@H]1CC[C@@H](CO)O1	-	>500 µM
Cc1c(Cc2c(Cl)cccc2Cl)nc(S/C=C/c2ccc(F)cc2)[nH]c1=O	-	>59.38 µM
O=Nc1c(O)n(CCOCCn2c(O)c(N=O)c3ccccc32)c2ccccc12	MTT	238 µM
Nc1nc2c(ncn2CCOCP(=O)(O)O)c(=O)[nH]1	-	21–185 µM
O=C1c2c(O)cc(O)cc2O[C@H](c2ccc(O)c(O)c2)[C@H]1O	-	>100 µg/mL
CCc1c(Sc2cc(C)cc(C)c2)n(COCCO)c(=S)[nH]c1=O	-	172 µM
COc1cc(O)c(-c2coc3cc(O)ccc3c2=O)c(OC)c1CC=C(C)C	-	64 µg/mL
C=C(C)[C@@H]1CC[C@]2(C(=O)OC)CC[C@]3(C)C(CC[C@@H]4[C@@]5(C)C[C@@H](F)[C@H](OC(=O)CC(C)(C)C(=O)O)C(C)(C)[C@@H]5CC[C@]43C)[C@@H]12	ATP / luminescence	>16 µM
COc1cc(Oc2c(C)cc(C#N)cc2C)cc(Nc2ccc(C#N)cc2)n1	MTT	>147 µM
Cc1c(Cc2c(F)cccc2F)nc(SCC#Cc2ccc([N+](=O)[O-])cc2)[nH]c1=O	-	>58.55 µM
CCc1nc2sccn2c1C(=O)c1ccc(O)cc1	MTT	42 µM
CC(C)Nc1cccnc1N1CCN(C(=O)c2cc3cc(NS(C)(=O)=O)ccc3[nH]2)CC1	MTT	>2 µg/mL
CC(C)Oc1nc(N)nc2c1ncn2[C@H]1C[C@H](N=[N+]=[N-])[C@@H](CO)O1	-	~200 µM
CC(C)=CCc1c([C@@H]2CCc3ccc(O)cc3O2)cc2c(c1O)OC(C)(C)C=C2	-	12 µg/mL
COc1ccc(CN2C(=O)Nc3cscc3S2(=O)=O)c(OC)c1	-	705.4 µM
Nc1ccn([C@H]2CC[C@@H](CO)O2)c(=O)n1	MTT	1.6 µg/mL
C=S(=C)(N)c1ccc(CN2CCC(Nc3nc(Nc4c(C)cc(C)cc4C)c4[nH]cnc4n3)CC2)cc1	MTT	23.89 µM
CCOCn1c(Sc2cc(C)cc(C)c2)c(CC)c(=O)[nH]c1=O	-	>100 µM
CCO/N=C(/c1ccco1)c1c(CC)nc2sccn12	MTT	160 µM
O=C1Nc2cscc2S(=O)(=O)N1c1ccc(F)cc1	-	435.8 µM
CC(C)OP(=O)(COCC1(Cn2ccc(N)nc2=O)CC=CC1)OC(C)C	-	>100 µg/mL
CN(C)c1nc(N)nc2c1ncn2[C@H]1C[C@H](N=[N+]=[N-])[C@@H](CO)O1	-	>200 µM
Cc1cn([C@H]2C=C[C@@H](CO)O2)c(=O)[nH]c1=O	-	79 µM
Nc1ccn(C[C@@H]2C[C@@]2(CO)c2ccccc2)c(=O)n1	-	<46.7 µg/mL
CC(C)OP(=O)(COC[C@H]1C[C@@]1(c1ccccc1)n1ccc(N)nc1=O)OC(C)C	-	>100 µM
CC1(C)C2CC[C@]3(C)C(C(=O)C=C4C5C[C@@](C)(C(=O)Nc6c[nH]c(=O)[nH]c6=O)CC[C@]5(C)CC[C@]43C)[C@@]2(C)CC[C@@H]1O[C@H]1O[C@H](C(=O)Nc2c[nH]c(=O)[nH]c2=O)[C@@H](O)[C@H](O)[C@H]1O[C@@H]1O[C@H](C(=O)Nc2c[nH]c(=O)[nH]c2=O)[C@@H](O)[C@H](O)[C@H]1O	trypan blue	2080 µg/mL
COc1ccc(C#CCSc2nc(Cc3c(Cl)cccc3Cl)c(C)c(=O)[nH]2)cc1	-	>56.18 µM
CCc1c(Sc2cc(C)cc(C)c2)n(COCc2ccccc2)c(=O)[nH]c1=O	-	>20 µM
NC(=O)CN1C(=O)N(Cc2ccccc2)c2cscc2S1(=O)=O	-	>355.7 µM
Cc1cn([C@H]2C[C@H](N=[N+]=[N-])[C@@H](CO)O2)c(=O)nc1N(C)N	-	8.56 µM
Cn1c(=O)cc(Oc2nc(Nc3ccc(C#N)cc3)nc(Nc3nc4ccc(F)cc4s3)n2)c2ccccc21	MTT	2.26 µg/mL
Nc1ncnc2c1ncn2CCOCP(=O)(O)O	-	21–185 µM
Cc1cc(C)c(Nc2nc(NC3CCN(Cc4ccccn4)CC3)nc3nc[nH]c23)c(C)c1	MTT	114 µM
Cc1cn([C@]2(c3ccccc3)C[C@@H]2COCP(=O)(O)O)c(=O)[nH]c1=O	-	>100 µM
OC[C@H]1O[C@@H](Oc2ccc(O)c3cccc(O)c23)[C@H](O)[C@@H](O)[C@@H]1O	-	25 µg/mL
CO/N=C1\C(=O)N(CCOCCN2C(=O)/C(=N/OC)c3cc(Cl)ccc32)c2ccc(Cl)cc21	MTT	193 µM
Cc1ccnc2c1NC(=O)c1cccnc1N2C1CC1	-	683 µM
Nc1nc2c(ncn2CC(CO)OCP(=O)(O)O)c(=O)[nH]1	-	59–168 µM
Cn1c(=O)cc(Oc2nc(Nc3ccc(C#N)cc3)nc(Nc3nc4ccc(Cl)cc4s3)n2)c2ccccc21	MTT	2.19 µg/mL
Cc1c(C(C)c2c(Cl)cccc2Cl)nc(SCc2ccc(C#N)cc2)[nH]c1=O	-	>11.63 µM
COc1cc(C(=O)OC[C@H]2O[C@@H](Oc3ccc(O)c4cccc(O)c34)[C@H](O)[C@@H](O)[C@@H]2O)cc(OC)c1O	-	>100 µg/mL
O=c1ccn([C@]2(c3ccccc3)C[C@@H]2COCP(=O)(O)O)c(=O)[nH]1	-	>100 µM
COc1ccc(/C=C/CSc2nc(Cc3c(F)cccc3F)c(C)c(=O)[nH]2)cc1	-	3.93 µM
[N-]=[N+]=N[C@H]1C[C@H](n2cnc3c(NC4CC4c4ccccc4)nc(N)nc32)O[C@@H]1CO	-	>80 µM
N#CCN1C(=O)N(Cc2ccccc2)c2cscc2S1(=O)=O	-	291.3 µM
CC(C)=CCN1Cc2cc(Cl)cc3[nH]c(=S)n(c23)C[C@@H]1C	-	67 µM
CCCOc1nc(N)nc2c1ncn2[C@H]1C[C@H](N=[N+]=[N-])[C@@H](CO)O1	-	>200 µM

For reference, 11 entries again:

compound | read by | result
COc1ccc(C#CCSc2nc(Cc3c(Cl)cccc3Cl)c(C)c(=O)[nH]2)cc1 | - | >56.18 µM
Cc1cn([C@H]2C[C@H](N=[N+]=[N-])[C@@H](CO)O2)c(=O)nc1N(C)N | - | 8.56 µM
OC[C@H]1O[C@@H](Oc2ccc(O)c3cccc(O)c23)[C@H](O)[C@@H](O)[C@@H]1O | - | 25 µg/mL
O=Nc1c(O)n(CCOCCn2c(O)c(N=O)c3ccccc32)c2ccccc12 | MTT | 238 µM
Cc1cn([C@]2(c3ccccc3)C[C@@H]2COCP(=O)(O)O)c(=O)[nH]c1=O | - | >100 µM
CN(C)c1nc(N)nc2c1ncn2[C@H]1C[C@H](N=[N+]=[N-])[C@@H](CO)O1 | - | >200 µM
C=S(=C)(N)c1ccc(CN2CCC(Nc3nc(Nc4c(C)cc(C)cc4C)c4[nH]cnc4n3)CC2)cc1 | MTT | 23.89 µM
CCCCNc1nc(N)nc2c1ncn2[C@H]1C[C@H](N=[N+]=[N-])[C@@H](CO)O1 | - | <200 µM
[N-]=[N+]=N[C@H]1C[C@H](n2cnc3c(NC4CC4c4ccccc4)nc(N)nc32)O[C@@H]1CO | - | >80 µM
COc1ccc(C2CC(=O)c3c(O)cc(O)cc3O2)c(CC=C(C)C)c1OC | - | >100 µg/mL
Cc1c(Cc2c(F)cccc2F)nc(NC2CCCCC2)[nH]c1=O | MTT | 30 µM